One series deals with CYP142 (Mycobacterium tuberculosis, UniProt P9WPL5). The conditions noted are these: compound 100 µM, P450 5 µM.
Another series deals with CYP125 (Mycobacterium tuberculosis, UniProt P9WPP1). The format is binding. The conditions noted are these: compound 100 µM, P450 5 µM; ratio of low spin to high spin CYP125.

The chains behind the UniProt entries cited, without tags or fusion partners. Where a name states a change or a piece, a line headed by the entry shows the natural chain unless it says otherwise.
UniProt P9WPL5: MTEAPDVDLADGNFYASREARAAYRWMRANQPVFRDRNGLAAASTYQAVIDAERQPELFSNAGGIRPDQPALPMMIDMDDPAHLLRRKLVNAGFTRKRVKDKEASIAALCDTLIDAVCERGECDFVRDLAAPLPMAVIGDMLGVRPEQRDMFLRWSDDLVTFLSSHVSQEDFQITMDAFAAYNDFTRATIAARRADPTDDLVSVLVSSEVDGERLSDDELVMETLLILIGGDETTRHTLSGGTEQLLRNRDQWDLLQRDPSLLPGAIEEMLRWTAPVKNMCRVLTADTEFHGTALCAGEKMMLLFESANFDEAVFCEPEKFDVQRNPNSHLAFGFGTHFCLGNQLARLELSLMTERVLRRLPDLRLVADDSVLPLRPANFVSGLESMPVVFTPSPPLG
UniProt P9WPP1: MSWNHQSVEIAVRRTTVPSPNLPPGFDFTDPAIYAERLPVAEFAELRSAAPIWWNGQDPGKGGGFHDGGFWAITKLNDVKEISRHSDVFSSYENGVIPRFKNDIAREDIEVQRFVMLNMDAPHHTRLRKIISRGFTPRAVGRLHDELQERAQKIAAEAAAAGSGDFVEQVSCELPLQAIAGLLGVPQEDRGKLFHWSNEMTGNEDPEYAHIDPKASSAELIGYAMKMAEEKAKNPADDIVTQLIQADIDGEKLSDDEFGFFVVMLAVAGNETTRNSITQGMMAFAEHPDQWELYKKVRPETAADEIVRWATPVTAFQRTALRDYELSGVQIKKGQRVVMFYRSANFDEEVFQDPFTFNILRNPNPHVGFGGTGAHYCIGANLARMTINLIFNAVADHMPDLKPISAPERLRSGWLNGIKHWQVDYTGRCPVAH

Consider one substance from publication PMC12305662, “Fragment-Based Development of Small Molecule Inhibitors Targeting Mycobacterium tuberculosis Cholesterol Metabolism” (Journal of Medicinal Chemistry, 2025).

For 3-(Pyridin-4-ylmethyl)aniline [3d], the “CYP142 Δλmax (nm)” value on CYP142 is on record as 2 nm. In addition, the “CYP125 LS/HS” value on CYP125 is 1.3.
